Measured values as given in patent publication US5457101A (priority 1994, dated 1995).

Tested on: 5-HT-2 receptor
Assay: H-spiperone displacement from binding sites in rat frontal cortex (Peroutka and Snyder)
Details: greatest activity at the 5-HT-2 receptor

Cc1cc2c(s1)Nc1ccccc1N=C2N1CCN(C)CC1 [2-methyl-4-(4-methyl-1-piperazinyl)-10H-thieno-[2,3-b][1,5]benzodiazepine]
concentration displacing H-spiperone from binding sites: low nanomolar concentrations
